Compound potency records, mixed from different reports. Data source: NIAID ChemDB in PubChem.

Shared fields: tests in culture; organism: Staphylococcus aureus; measure: MIC

Neighbouring rows are from separate reports.

{"structure": "O=c1[nH]sc2c(F)cccc12", "strain": "ATCC 6538", "result": "40 µg/mL"}
{"structure": "CC(C)c1c(O)ccc2c1CCC1C(C)(C)CCC[C@]21C", "result": "2 µg/mL"}
{"structure": "CC(C)c1c(O)c([N+](=O)[O-])cc2c1CC[C@H]1C(C)(C)CCC[C@]21C", "result": ">32 µg/mL"}
{"structure": "CC(C)c1c(O)ccc2c1C(=O)C[C@H]1C(C)(C)CCC[C@]21C", "strain": "Methicillin-resistant", "result": ">32 µg/mL"}
{"structure": "CC(C)c1cccc2c1CC[C@H]1C(C)(C)CCC[C@]21C", "result": ">32 µg/mL"}
{"structure": "CC(C)c1c(O)ccc2c1[C@@H]1O[C@@H]1[C@H]1C(C)(C)CCC[C@]21C", "strain": "Methicillin-resistant", "result": "32 µg/mL"}
{"structure": "CCC1CN(c2c(Cl)cc3c(=O)c(C(=O)O)cn(C4CC4)c3c2F)CCN1", "strain": "422", "result": "0.25 µg/mL"}
{"structure": "CC(C)c1cc2c(cc1O[C@H]1O[C@H](CO)[C@@H](O)[C@H](O)[C@@H]1O)[C@@]1(C)CCCC(C)(C)[C@@H]1CC2", "result": "8 µg/mL"}
{"structure": "CC(C)c1c(O)c(Br)cc2c1CC[C@H]1C(C)(C)CCC[C@]21C", "result": ">32 µg/mL"}
{"structure": "CCCCCCCCCCCCCCCCCCC(CC)C(=O)O", "result": "100 µM"}
{"structure": "CC(=O)CN1CCN(c2c(Cl)cc3c(=O)c(C(=O)O)cn(C4CC4)c3c2F)CC1", "strain": "133", "result": "0.25 µg/mL"}
{"structure": "COc1c(O)cc2c(c1C(C)C)CC[C@H]1C(C)(C)CCC[C@]21C", "result": ">32 µg/mL"}
{"structure": "O=C(O)c1cn(C2CC2)c2c(F)c(N3CCN(CCO)CC3)c(Cl)cc2c1=O", "strain": "422", "result": "0.5 µg/mL"}
{"structure": "C[C@H]1C[C@H](N)CN1c1cc2c(cc1F)c(=O)c(C(=O)O)cn2-c1ccc(F)cc1F", "strain": "NCTC10649", "result": "0.03 µg/mL"}
{"structure": "O=C(O)c1cn(C2CC2)c2c(Cl)c(N3CCNCC3)c(F)cc2c1=O", "strain": "1756", "result": "0.125 µg/mL"}
{"structure": "CSCC[C@H](N)C1CCN(c2c(F)cn3c(=O)c(C(=O)O)cc(C4CC4)c3c2C)C1", "strain": "NCTC10649", "result": "0.005 µg/mL"}
{"structure": "CO[C@H]1/C=C/O[C@@]2(C)Oc3c(C)c(O)c4c(=O)c(c5oc6cc(N7CCN(CC(C)C)CC7)cc(=O)c6nc5c4c3=C2O)NC(=O)/C(C)=C\\C=C\\[C@H](C)[C@H](O)[C@@H](C)[C@@H](O)[C@@H](C)[C@H](OC(C)=O)[C@@H]1C", "strain": "Terajima", "result": "0.0039 µg/mL"}
{"structure": "NC(=O)c1ccc(C(F)(F)F)cc1SSc1cc(C(F)(F)F)ccc1C(N)=O", "strain": "ATCC 6538", "result": "10 µg/mL"}
{"structure": "CC(=O)CCN1CCN(c2c(Cl)cc3c(=O)c(C(=O)O)cn(C4CC4)c3c2F)CC1", "strain": "133", "result": "0.25 µg/mL"}
{"structure": "CC(C)c1c(O)ccc2c1[C@H](O)[C@H](O)[C@H]1C(C)(C)CCC[C@]21C", "strain": "Methicillin-resistant", "result": "32 µg/mL"}
{"structure": "CCNCC1CCN(c2c(F)cc3c(=O)c(C(=O)O)cn(C(C)(C)C)c3c2F)C1", "result": "0.06 µg/mL"}
{"structure": "CCCCNC(=O)c1c(F)cccc1SSc1cccc(F)c1C(=O)NCCCC", "strain": "ATCC 6538", "result": "50 µg/mL"}
{"structure": "CC(C)c1c(O)ccc2c1[C@@](C)(O)C[C@H]1C(C)(C)CCC[C@]21C", "strain": "Methicillin-resistant", "result": "8 µg/mL"}
{"structure": "CN(C)[C@@H]1C(=O)C(C(N)=O)=C(O)[C@@]2(O)C(=O)C3=C(O)c4c(O)c(NC(=O)CN5CCOCC5)cc(F)c4C[C@H]3C[C@@H]12", "strain": "158-tet", "method": "agar diffusion", "result": "8 µg/mL"}
{"structure": "CC1CN(c2c(Cl)cc3c(=O)c(C(=O)O)cn(C4CC4)c3c2F)CC(C)N1", "strain": "422", "result": "0.25 µg/mL"}
{"structure": "CCCCNC(=O)c1cc(C(F)(F)F)ccc1SSc1ccc(C(F)(F)F)cc1C(=O)NCCCC", "strain": "ATCC 6538", "result": "40 µg/mL"}
{"structure": "CO[C@H]1/C=C/O[C@@]2(C)Oc3c(C)c(O)c4c(O)c(c(/C=N/N5CCN(C)CC5)c(O)c4c3C2=O)NC(=O)/C(C)=C\\C=C\\[C@H](C)[C@H](O)[C@@H](C)[C@@H](O)[C@@H](C)[C@H](OC(C)=O)[C@@H]1C", "strain": "SMITH", "result": "0.0078 µg/mL"}
{"structure": "CC[C@H](NC)C1CCN(c2c(F)cn3c(=O)c(C(=O)O)cc(C4CC4)c3c2C)C1", "strain": "NCTC10649", "result": "0.005 µg/mL"}
{"structure": "CC(C)c1cc2c(c(C(C)C)c1O)CC[C@H]1C(C)(C)CCC[C@]21C", "result": "32 µg/mL"}
{"structure": "CC(C)c1cc2c(cc1O[C@H]1O[C@H](CO)[C@H](O)[C@H](O)[C@H]1O)[C@@]1(C)CCCC(C)(C)[C@@H]1CC2", "result": "32 µg/mL"}
{"structure": "NC(=O)c1cccc(C(F)(F)F)c1SSc1c(C(N)=O)cccc1C(F)(F)F", "strain": "ATCC 6538", "result": "50 µg/mL"}
{"structure": "C[C@H](CCC(=O)O)[C@H]1CC[C@H]2[C@@H]3CC[C@@H]4C[C@H](O)CC[C@]4(C)[C@H]3C[C@H](O)[C@]12C", "result": "2000 µM"}
{"structure": "COc1cc2oc(=O)ccc2cc1CC(O)C(C)(C)O", "result": "125 µg/mL"}
{"structure": "CCO[C@@H]1C[C@H]2C(C)(C)CCC[C@]2(C)c2ccc(O)c(C(C)C)c21", "strain": "Methicillin-resistant", "result": "2 µg/mL"}
{"structure": "Cc1c(N2CC3=CCCN[C@@H]3C2)c(F)cn2c(=O)c(C(=O)O)cc(C3CC3)c12", "strain": "285", "result": "0.049 µg/mL"}
{"structure": "CC1CN(c2c(Cl)cc3c(=O)c(C(=O)O)cn(C4CC4)c3c2Cl)CCN1", "strain": "1756", "result": "0.125 µg/mL"}
{"structure": "CC(=O)OC[C@H]1O[C@H](Oc2cc3c(cc2C(C)C)CC[C@H]2C(C)(C)CCC[C@]32C)[C@@H](OC(C)=O)[C@@H](OC(C)=O)[C@@H]1OC(C)=O", "result": ">32 µg/mL"}
{"structure": "CC(C)c1c(O)ccc2c1C[C@@H](O)[C@H]1C(C)(C)CCC[C@]21CO", "strain": "Methicillin-resistant", "result": "8 µg/mL"}
{"structure": "CCCCCCCC(CCCCCCC)CC(=O)O", "result": "200 µM"}

For reference, 3 entries again:

| structure | strain | method | result |
|---|---|---|---|
| O=C(O)c1cn(C2CC2)c2c(Cl)c(N3CCNCC3)c(F)cc2c1=O | 1756 |  | 0.125 µg/mL |
| Cc1c(N2CC3=CCCN[C@@H]3C2)c(F)cn2c(=O)c(C(=O)O)cc(C3CC3)c12 | 285 |  | 0.049 µg/mL |
| CCO[C@@H]1C[C@H]2C(C)(C)CCC[C@]2(C)c2ccc(O)c(C(C)C)c21 | Methicillin-resistant |  | 2 µg/mL |

Blank or dashed fields: not listed here.